# According to PMC6851853, “Characterization of P. falciparum dipeptidyl aminopeptidase 3 specificity identifies differences in amino acid preferences between peptide‐based substrates and covalent inhibitors” (The Febs Journal, 2019):
# Chains of the proteins cited; added tags and fusions are not shown. Residues count along the entry.
# UniProt Q8I1Y2, 21-939 limits assumed: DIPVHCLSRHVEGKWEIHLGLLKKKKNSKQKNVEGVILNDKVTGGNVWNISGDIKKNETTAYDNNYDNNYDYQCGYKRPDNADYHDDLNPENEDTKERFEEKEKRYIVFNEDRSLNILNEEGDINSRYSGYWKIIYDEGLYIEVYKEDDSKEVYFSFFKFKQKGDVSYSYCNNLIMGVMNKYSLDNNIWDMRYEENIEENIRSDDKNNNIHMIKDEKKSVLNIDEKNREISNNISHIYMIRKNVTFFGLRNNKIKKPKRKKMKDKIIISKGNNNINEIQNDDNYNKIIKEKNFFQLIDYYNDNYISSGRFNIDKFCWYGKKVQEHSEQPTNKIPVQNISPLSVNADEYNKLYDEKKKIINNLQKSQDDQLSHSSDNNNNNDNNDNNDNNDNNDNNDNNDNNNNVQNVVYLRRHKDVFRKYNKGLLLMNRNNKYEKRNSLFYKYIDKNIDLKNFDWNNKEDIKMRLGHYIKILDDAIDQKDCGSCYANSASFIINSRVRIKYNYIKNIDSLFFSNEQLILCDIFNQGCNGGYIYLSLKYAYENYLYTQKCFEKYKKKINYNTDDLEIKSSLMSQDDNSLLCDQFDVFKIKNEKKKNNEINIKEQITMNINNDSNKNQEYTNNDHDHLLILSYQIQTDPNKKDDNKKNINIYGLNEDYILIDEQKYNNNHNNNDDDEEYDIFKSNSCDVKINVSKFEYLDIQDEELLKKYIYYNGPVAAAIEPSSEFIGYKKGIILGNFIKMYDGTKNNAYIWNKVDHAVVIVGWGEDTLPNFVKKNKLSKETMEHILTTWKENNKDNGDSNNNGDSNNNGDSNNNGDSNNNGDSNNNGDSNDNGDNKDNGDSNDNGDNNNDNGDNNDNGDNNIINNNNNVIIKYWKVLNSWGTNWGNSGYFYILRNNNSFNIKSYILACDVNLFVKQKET
# Biological target: DPAP3 (Plasmodium falciparum, UniProt Q8I1Y2)
# Assay: continuous fluorogenic assay, V0 fitted to reversible binding model
# Conditions: read-out: DPAP3 / K i, no time-dependent inactivation, 2.2 µM Met-nLeu(o-Bzl)-ACC, pH 6, 5 mM DTT, RT
# Text: continuous fluorogenic assay, V0 fitted to reversible binding model on DPAP3 (recombinant)
smiles,measurement,value
NCc1ccc(C(=O)N[C@H](/C=C/S(=O)(=O)CCCCCCCCCCC(=O)N[C@@H](Cc2ccc(O)cc2)C(N)=O)CCc2ccccc2)cc1,Ki,3.2 µM
